This series concerns the molecule itself. In words: SEC; final gel filtration step, HiLoad 16/600 Superdex 200 in 20 mM CHES, 100 nM ZnCl2, 1 mM TCEP, pH 10.0, 4°C; oligomer judged from retention time. (In general: Size exclusion chromatography separates by hydrodynamic size, large species first.)

The values below come from PMC4936896, “Primate TRIM5 proteins form hexagonal nets on HIV-1 capsids” (eLife, 2016).

B1: HIV-1-restricting human TRIM5α_(R332P) (natural protein, UniProt Q9C035 1-493, looked up)
chain: MASGILVNVKEEVTCPICLELLTQPLSLDCGHSFCQACLTANHKKSMLDKGESSCPVCRISYQPENIRPNRHVANIVEKLREVKLSPEGQKVDHCARHGEKLLLFCQEDGKVICWLCERSQEHRGHHTFLTEEVAREYQVKLQAALEMLRQKQQEAEELEADIREEKASWKTQIQYDKTNVLADFEQLRDILDWEESNELQNLEKEEEDILKSLTNSETEMVQQTQSLRELISDLEHRLQGSVMELLQGVDGVIKRTENVTLKKPETFPKNQRRVFRAPDLKGMLEVFRELTDVRRYWVDVTVAPNNISCAVISEDKRQVSSPKPQIIYGAPGTRYQTFVNFNYCTGILGSQSITSGKHYWEVDVSKKTAWILGVCAGFQPDAMCNIEKNENYQPKYGYWVIGLEEGVKCSAFQDSSFHTPSVPFIVPLSVIICPDRVGVFLDYEACTVSFFNITNHGFLIYKFSHCSFSQPVFPYLNPRKCGVPMTLCSPSS
notes: also called TRIM5α_(hu,R332P)
Take B1: the “stoichiometry N” value stood at 2.

One may read the stoichiometry N as a count of units in the complex or per binding partner.
